Anti-infective test results gathered from many reports (values: NIAID ChemDB through PubChem).

Shared fields: whole-cell or culture tests; agent: HIV-1; method: p24; measure: EC50

Blank or dashed fields: not listed here. Two numbers with a dash give a range or band. ECn is the concentration giving n% inhibition of infection, replication or growth. Conditions beyond the fields shown may differ between rows.

structure,cells,changes,strain,result
CC(C)CN(C[C@@H](O)[C@H](Cc1ccccc1)NC(=O)O[C@H]1CCOC1)S(=O)(=O)c1ccc(N)cc1,PBMC,,Clinical isolates,0.08 µM
O=c1[nH]cnc2c1ncn2[C@H]1CC[C@@H](CO)O1,PBMC,,9632 CLADE B CLADE B,2.25 µM
Cn1c2ccccc2c2c3c(c4c5ccccc5n(CC(F)F)c4c21)CNC3=O,U1/HIV-1(TNFalpha) + U1,,,0.03 µM
[N-]=[N+]=N[C@H]1C[C@H]2O[C@@H]1COc1nc(=O)ccn12,CEM-F + CEM,,,4.95 µM
Nc1ncnc2c1ncn2CCOCP(=O)(O)OCOC(=O)OCc1ccccc1,MT-4,,IIIB,>30 µM
Nc1nc(=O)n(CCOCP(=O)(O)O)cc1Br,MT-2,,LAI,>100 µM
CC(C)(C)S(=O)(=O)C[C@@H](Cc1cccc2ccccc12)C(=O)N[C@H](C(=O)N[C@@H](Cc1ccccc1)[C@@H](O)[C@H](O)[C@H](Cc1ccccc1)NC(=O)[C@@H](NC(=O)[C@H](Cc1cccc2ccccc12)CS(=O)(=O)C(C)(C)C)C1CCCCC1)C1CCCCC1,PBLC,,D34,0.06 µM
Nc1nc(=O)n([C@@H]2CS[C@H](CO)O2)cc1F,MT-4,,IIIB,27.7 µM
Cc1cn2c(nc1=O)OC[C@@H]1CC[C@H]2O1,CEM-F + CEM,,,48 µM
Nc1ncnc2c1ncn2CCOCP(=O)(OCOC(=O)OC1CCCC1)OCOC(=O)OC1CCCC1,MT-4,,,3.51 µM
CC(C)(C)NC(=O)[C@@H]1C[C@@H]2CCCC[C@@H]2CN1C[C@@H](O)[C@H](Cc1ccccc1)NC(=O)[C@H](CC(N)=O)NC(=O)c1ccc2ccccc2n1,PBMC,PR-L10I V11I T12E I15V L19I R41K M46L L63 A71T V82A L90M,Clinical isolate,0.033 µM
COc1c2c(cc3c1-c1c(cc4c(c1OC)OCO4)C(OC(=O)c1ccccc1)[C@@](C)(O)[C@@H](C)C3)OCO2,H9,,IIIB,0.5 µg/mL
Nc1ncnc2c1ncn2CCOCP(=O)(OCOC(=O)OCc1ccccc1)OCOC(=O)OCc1ccccc1.O=C(O)/C=C/C(=O)O,MT-4,,IIIB,>30 µM
Oc1ccc(C[C@@H]2NCCc3cc(O)c(O)cc32)cc1,H9,,IIIB,<0.8 µg/mL
[N-]=[N+]=N[C@H]1C[C@H](n2cc(Br)c(=O)[nH]c2=O)O[C@@H]1CO,CEM-F + CEM,,,8.73 µM
CCCCCCCCCCCCCCCCOCCCOP(=O)(O)CO[C@H](CO)Cn1cc(F)c(N)nc1=O,MT-2,,LAI,39 µM
C[C@@H]1O[C@@H](OC[C@H]2O[C@@H](Oc3c(-c4ccc(O)c(O)c4)oc4cc(O)cc(O)c4c3=O)[C@H](O)[C@@H](O)[C@@H]2O)[C@H](O)[C@H](O)[C@H]1O,H9,,IIIB,35.8 µg/mL
O=Nc1c(-c2c(O)[nH]c3ccccc23)[nH]c2ccccc12,PBMC,,GP120-R305K P308H SCH-1 resistant,<1 µM
CC1=CC(=O)[C@@H](O)[C@]2(C)[C@H]3[C@@]4(O)OC[C@@]35[C@@H](C[C@@H]12)OC(=O)C[C@H]5[C@@H](C)[C@H]4O,PBMC,,,0.027 µM
[N-]=[N+]=N[C@H]1C[C@H](n2cc(I)c(=O)[nH]c2=O)O[C@@H]1CO,CEM-F + CEM,,,12.6 µM
C[C@H](Cn1cnc2c(N)ncnc21)OCP(=O)(OCOC(=O)OC1CCCC1)OCOC(=O)OC1CCCC1.O=C(O)/C=C/C(=O)O,MT-4,,IIIB,>30 µM
O=S1(c2ccccc2)=NC(=S)Nc2ccccc21,Macrophage,,RF,0.07 µM
COc1cc2c(cc1OC)C(Cc1ccc(O)cc1)N(C)CC2,H9,,IIIB,<0.8 µg/mL
Nc1ncnc2c1ncn2CCOCP(=O)(OCOC(=O)OC1CCCCC1)OCOC(=O)OC1CCCCC1,MT-4,,,23.1 µM
Nc1nc2c(ncn2CCOCP(=O)(O)O)c(=O)[nH]1,MT-2,,LAI,0.13 µM
C=CCOC(=O)OCOP(=O)(O)COCCn1cnc2c(N)ncnc21,MT-4,,,23.7 µM
CC(C)c1c(COC(N)=O)cn(Cc2ccncc2)c1Sc1cc(Cl)cc(Cl)c1,C8166,RT-Y181C,,<20 µM
OO,PBMC,,BaL,>100 µM
CC(C)c1c(CO)cn(Cc2ccncc2)c1Sc1cc(Cl)cc(Cl)c1,C8166,RT-Y181C,,<1.7 µM
CN1Cc2c(c3c4ccccc4n(C)c3c3c2c2ccccc2n3CCC#N)C1=O,U1/HIV-1(PMA) + U1,,,>>1 µM
O=c1cc(Cc2c(F)cccc2F)nc(SC2CCCC2)[nH]1,MT-4,,IIIB,<0.08 µM
CCCCCCCCCCCCCCCCOCCCOP(=O)(O)COCCn1ccc(N)nc1=O,MT-2,,LAI,>10 µM
COc1c(O)cc2c3c1-c1cc(O)ccc1C[C@H]3N(C)CC2,H9,,IIIB,<0.8 µg/mL
CC(C)[C@H](NC(=O)OCc1cccnc1)C(=O)N[C@@H](Cc1ccccc1)[C@@H](O)[C@H](O)[C@H](Cc1ccccc1)NC(=O)[C@@H](NC(=O)OCc1cccnc1)C(C)C,PBLC,,D34,0.253 µM
COc1cc2c3c(c1OC)-c1cc(O)ccc1C[C@H]3N(C)CC2,H9,,IIIB,0.8 µg/mL
C/C=C(/C)C(=O)OC1c2cc3c(c(OC)c2-c2c(cc4c(c2OC)OCO4)C[C@H](C)[C@H]1C)OCO3,H9,,IIIB,>34 µg/mL
CCCCC#CCSc1ccccc1OC(C)=O,PBMC,,BaL,13.5 µM
C=CCOC(=O)OCOP(=O)(CO[C@@H](C)Cn1cnc2c(N)ncnc21)OCOC(=O)OCC=C.O=C(O)/C=C/C(=O)O,MT-4,,IIIB,1.61 µM
CC(C)[C@H](NC(=O)[C@H](Cc1cccc2ccccc12)CS(=O)(=O)C(C)(C)C)C(=O)NC[C@@H](O)[C@H](O)CNC(=O)[C@@H](NC(=O)[C@H](Cc1cccc2ccccc12)CS(=O)(=O)C(C)(C)C)C(C)C,PBLC,,D34,10 µM
CC(C)(C)NC(=O)[C@@H]1CN(Cc2cccnc2)CCN1C[C@@H](O)C[C@@H](Cc1ccccc1)C(=O)N[C@H]1c2ccccc2C[C@H]1O,PBMC,,LAI Laboratory isolate,0.015 µM
Cc1c(O)cccc1C(=O)N[C@@H](CSc1ccccc1)[C@H](O)CN1C[C@H]2CCCC[C@H]2C[C@H]1C(=O)NC(C)(C)C,PBMC,PR-L10R M46I L63P V82T I84V,HXB2,<0.25 µM
Cc1c(Cc2c(F)cccc2F)nc(SC2CCCC2)[nH]c1=O,MT-4,,IIIB,<0.04 µM
CC(C)(C)NC(=O)[C@@H]1CN(Cc2cccnc2)CCN1C[C@@H](O)C[C@@H](Cc1ccccc1)C(=O)N[C@H]1c2ccccc2C[C@H]1O,PBMC,,BaL,0.011 µM
Cc1cn([C@H]2C[C@H](N=[N+]=[N-])[C@@H](CO)O2)c(=O)[nH]c1=O,CEM,,LAV,0.007–0.1 µM
Cc1cn([C@H]2C[C@H](N=[N+]=[N-])[C@@H](CO)O2)c(=O)[nH]c1=O,C8166,,IIIB,<0.08 µg/mL
CN1CCc2cc3c(c4c2[C@H]1Cc1ccc(O)cc1-4)OCO3,H9,,IIIB,0.84 µg/mL
O=C1CN=C(c2ccc[nH]2)c2cc(Cl)ccc2N1,U87.CD4-CXCR4+ + U87.CD4,,NL4-3 X4,0.5 µg/mL
O=c1[nH]c(=O)n(C[C@@H](CO)OCP(=O)(O)O)cc1F,MT-2,,LAI,>100 µM
CC(C)c1nc(CN(C)C(=O)N[C@H](C(=O)N[C@@H](Cc2ccccc2)C[C@H](O)[C@H](Cc2ccccc2)NC(=O)OCc2cncs2)C(C)C)cs1,PBMC,PR-L10I I15V K20R M36I M46L I54V K55R I62V L63P K70Q V82A L89M,Clinical isolate,>1 µM
Cc1cn([C@H]2C=C[C@@H](CO)O2)c(=O)[nH]c1=O,CEM,,LAV,0.33 µM
N#CCCn1c2ccc(O)cc2c2c3c(c4c5cc(O)ccc5[nH]c4c21)C(=O)NC3,U1/HIV-1(PMA) + U1,,,0.23 µM
CCCCCCCCCCCCCCCCOCCCOP(=O)(O)COCCn1cnc2c(N)nc(N)nc21,MT-2,,LAI,0.000016 µM
CN=C1CN=C(c2ccc[nH]2)c2cc(Cl)ccc2N1,PBL,,N1T,0.5 µM

4 of the rows above, restated:

structure | cells | changes | strain | result
N#CCCn1c2ccc(O)cc2c2c3c(c4c5cc(O)ccc5[nH]c4c21)C(=O)NC3 | U1/HIV-1(PMA) + U1 |  |  | 0.23 µM
O=S1(c2ccccc2)=NC(=S)Nc2ccccc21 | Macrophage |  | RF | 0.07 µM
CC(C)c1c(CO)cn(Cc2ccncc2)c1Sc1cc(Cl)cc(Cl)c1 | C8166 | RT-Y181C |  | <1.7 µM
Cc1c(Cc2c(F)cccc2F)nc(SC2CCCC2)[nH]c1=O | MT-4 |  | IIIB | <0.04 µM